Laboratory results as given in patent publication US6570004B1 (priority 1996, dated 2003).

System: H. pylori strain 60190 and mutants
Assay: Growth of wild type and mutant H. pylori strains on brucella agar in the presence or absence of DAP
Conditions: 1 mM lysine, no DAP

NCCCC[C@H](N)C(=O)O
Growth of the dapE− mutant on media supplemented with lysine only: unable to grow
